Compound potency records, mixed from different reports. Data source: NIAID ChemDB in PubChem.

All rows: growth or infection tests; organism: Mycobacterium tuberculosis

MIC50, MIC90 and the like: level of inhibition, or share of isolates inhibited. Blank or dashed fields: not listed here. MIC bound: limit read from a one-dose screen. Percent inhibition refers to the dose given; in toxicity tests it is the harm to the cells. Rows are shuffled and stem from different studies. ECn: concentration that inhibits the pathogen or its effect by n%.

smiles | measure | tested at | conditions | cells | read by | strain | value
Cc1c(N2C(=O)CC(=O)N(c3ccc(C(=O)O)c(O)c3)C2=S)c(=O)n(-c2ccccc2)n1C | MIC90 |  |  |  | broth dilution | H37Rv | >12.5 µg/mL
CC1(C)O[C@H]2OC([C@H](CCO)NCCCCCCCCCN[C@@H](CCO)C3O[C@@H]4OC(C)(C)O[C@@H]4[C@H]3OCc3ccccc3)[C@H](OCc3ccccc3)[C@H]2O1 | MIC |  |  |  |  | H37Rv | 6.25 µg/mL
C=CCOCCN1CCN(CCCN2c3ccccc3Sc3ccc(C(F)(F)F)cc32)CC1.Cl | MIC bound |  |  |  | BACTEC | H37Rv | ≤12.5 µg/mL
O=C(NCc1ccc(Cl)c(Cl)c1)c1ncccc1S | MIC |  |  |  |  | CNCTC MY 331/8 | 32 µM
COc1ccc(C2CC(=O)c3cc(C(=O)O)ccc3O2)cc1 | EC50 |  |  |  |  |  | >12.5 µg/mL
COc1ccc2cc3[n+](cc2c1OC)CCc1cc2c(cc1-3)OCO2 | MIC bound |  |  |  | BACTEC | H37Rv | >12.5 µg/mL
O=[N+]([O-])c1cn2c(n1)OC[C@@H](OCc1ccc(OCc3ccccc3)cc1)C2 | MIC |  |  |  |  | H37Rv-5A2 (PA-824-resistant) | >100 µM
O=C(/C=C/c1cccc(Cl)c1)c1ccccc1O | EC50 |  |  |  |  | H37Rv | <12.5 µg/mL
CO[C@H]1C[C@@H]2\C=C(C)/C=C/C=C\C(=O)N[C@H](c3ccccc3)C/C=C/CC[C@H](O)CC(=O)C2=C1O | MIC |  |  |  |  | CS-R | 1.6 µg/mL
NNC(=O)C(N)Cc1ccccc1 | MIC |  |  |  | resazurin | H37Rv | 100 µg/mL
COc1cc(O)c(C(=O)/C=C/c2cc(OC)c(OC)c(OC)c2)c(O)c1 | inhibition | 12.5 µg/mL |  |  |  |  | 0%
CCOC(=O)C[C@H](NCCCCCCCN[C@H](CC(=O)OCC)[C@H]1O[C@@H]2CC(C)(C)C[C@@H]2[C@H]2CC(C)(C)C[C@H]21)[C@H]1O[C@@H]2CC(C)(C)C[C@@H]2[C@H]2CC(C)(C)C[C@H]21 | MIC |  |  |  |  | H37Rv | >25 µg/mL
O=C(CSc1nnc(-c2ccccn2)s1)N/N=c1/scc(-c2ccccc2)n1-c1cccc(Cl)c1 | MIC |  |  |  |  | H37Rv | >80 µg/mL
Cc1[nH]c2ccc(C(=O)NN)cc2c1CC(=O)NN | inhibition | 12.5 µg/mL |  |  | BACTEC | H37Rv | 24%
CCC1Cn2cc([N+](=O)[O-])nc2O1 | MIC |  |  |  |  | H37Rv-14A1-3547 (PA-824-resistant) | 0.4 µM
CC(=O)c1c(O)c(C)c(O)c2c1OC1=Cc3onc(C)c3C(=O)C12C | MIC bound |  |  |  | BACTEC | H37Rv | >12.5 µg/mL
O=C(/C=C/c1ccccc1)c1ccccc1O | EC50 |  |  |  |  | H37Rv | <12.5 µg/mL
CCCCSc1nc(C(N)=S)cnc1CC(C)C | MIC |  |  |  |  | H37Rv | >12.5 µg/mL
Cc1onc(-c2ccccc2)c1C(=O)N[C@@H]1C(=O)N2[C@@H]1SC(C)(C)[C@@H]2C(=O)O | inhibition | 5 µg/mL | 21 d |  | colony count | Gordon | 95%
O=C(CSc1nnc(-c2ccccn2)s1)N/N=c1/scc(-c2ccccc2)n1-c1cccc([N+](=O)[O-])c1 | MIC |  |  |  |  | Clinical isolate 331 | >80 µg/mL
O=C(NNC(=S)Nc1ccc(C(=O)O)c(O)c1)c1ccncc1 | MIC90 |  |  |  | broth dilution | H37Rv | <12.5 µg/mL
NC(=O)CCCCC1CCSS1 | MIC |  |  |  | BACTEC | H37Rv | 6.25 µg/mL
CSc1nc(C(N)=O)cnc1C(C)(C)C | inhibition | 12.5 µg/mL |  |  |  | H37Rv | <90%
c1ccc2c(c1)ccc1c2nc2c3ccccc3[nH]n12 | MIC |  |  | VERO |  | H37Rv | 0.39 µg/mL
CC1(C)S[C@@H]2[C@H](NC(=O)C(C(=O)O)c3ccccc3)C(=O)N2[C@H]1C(=O)O | inhibition | 10 µg/mL | 21 d |  | colony count | Gordon | 77%
O=C(Nc1cccc(F)c1)c1ncccc1S | MIC |  |  |  |  | CNCTC MY 331/8 | 32 µM
COc1ccc(C2Oc3ccccc3C(=O)C2O)cc1 | inhibition | 12.5 µg/mL |  |  |  | H37Rv | 48%
Cc1ccc(CNC(=O)c2ncccc2S)cc1 | MIC |  |  |  |  | CNCTC MY 331/8 | 8 µM
CCC1CN(c2cc3c(cc2F)c(=O)c(C(=O)O)cn3C2CC2)CCN1 | MIC |  |  |  |  | TN3033 (D94N) | 5 µg/mL
O=C(Nc1ccccc1)c1ncccc1O | MIC |  |  |  |  | CNCTC MY 331/8 | 250 µM
O=C(CSc1nnc(-c2ccccn2)s1)N/N=c1/scc(-c2cccc(Br)c2)n1-c1ccccc1 | MIC |  |  |  |  | H37Rv | 40 µg/mL
O=C(Nc1ccc(Br)cc1)c1ncccc1O | MIC |  |  |  |  | CNCTC MY 331/8 | 62.5 µM
CSC(=S)NCc1nnn(Cc2ccccc2)c1N | MIC |  |  |  | BACTEC | H37Rv | 128 µg/mL
CC(C)CC(NC(=O)OC(C)(C)C)C(=O)N/N=C/c1occc1[N+](=O)[O-] | MIC |  |  |  | resazurin | H37Rv | 50 µg/mL
CCCCc1ncc(C(N)=S)nc1SCC | inhibition | 12.5 µg/mL |  |  |  | H37Rv | 77%
O=C1C[C@@H](c2ccc(O)cc2)Oc2c1c(O)cc(O[C@@H]1O[C@H](CO)[C@@H](O)[C@H](O)[C@H]1O)c2[C@H]1C(=O)c2c(O)cc(O)cc2O[C@@H]1c1ccc(O)cc1 | EC50 |  |  |  |  |  | >12.5 µg/mL
CC(C)CC(NC(=O)OCc1ccccc1)C(=O)N/N=C/c1occc1[N+](=O)[O-] | MIC |  |  |  | resazurin | H37Rv | 25 µg/mL
CN1CCC(=C2c3ccccc3C=Cc3cccnc32)CC1 | MIC |  |  |  |  | H37Ra | 256 µg/mL
O=C(Nc1ccc(F)cc1)c1ncccc1S | MIC |  |  |  |  | CNCTC MY 331/8 | 16 µM
CC(=O)NC[C@H]1CN(c2ccc(N3CCOCC3)c(F)c2)C(=O)O1 | MIC |  |  |  |  | Strain 7 | 0.25 µg/mL
CC1(C)O[C@H]2OC([C@H](CCO)NCCCN[C@@H](CCO)C3O[C@@H]4OC(C)(C)O[C@@H]4[C@H]3OCc3ccccc3)[C@H](OCc3ccccc3)[C@H]2O1 | MIC |  |  |  |  | H37Rv | >50 µg/mL
O=C(c1ccncc1)c1cccc(Cl)c1 | MIC bound |  |  |  | resazurin | H37Rv | >6.25 µg/mL
O=C(CSc1nnc(-c2ccccn2)s1)N/N=c1/scc(-c2ccccc2Br)n1-c1ccccc1 | MIC |  |  |  |  | Clinical isolate 180 | 80 µg/mL
CCCCc1ncc(C(N)=O)nc1SC | MIC |  |  |  |  | H37Rv | >12.5 µg/mL
COc1cc(OC)c(/C=N/Nc2cc(C)c3ccc(OC)cc3n2)c(OC)c1 | MIC bound |  |  |  | BACTEC | H37Rv | >12.5 µg/mL
CC(NC(=O)OC(C)(C)C)C(=O)N/N=C/c1ccco1 | MIC |  |  |  | resazurin | H37Rv | 100 µg/mL
Cc1ccc(NC2=CC(=O)C(=O)c3ccccc32)c(C)c1 | MIC bound |  |  |  | resazurin | H37Rv | <6.25 µg/mL
O=C(CSc1nnc(-c2ccccn2)s1)N/N=c1/scc(-c2ccccc2)n1-c1ccccc1Cl | MIC |  |  |  |  | Clinical isolate 331 | >80 µg/mL
CCCOC(=O)CSc1nnc(-c2ccc([N+](=O)[O-])s2)s1 | MIC |  |  |  | resazurin | H37Rv | 0.39 µg/mL
O=C(/C=C/c1ccccc1)c1cc(-c2ccccc2)ccc1O | EC50 |  |  |  |  |  | <12.5 µg/mL
O=C1OCCSCCOCCSCCOC(=O)c2cncc1c2 | MIC bound |  |  |  | BACTEC | H37Rv | >12.5 µg/mL
O=C(CSc1nnc(-c2ccc([N+](=O)[O-])s2)s1)OCc1ccccc1 | inhibition | 6.25 µg/mL |  |  | resazurin | H37Rv | 99%
CC1COc2c(N3CCN(C)CC3)c(F)cc3c(=O)c(C(=O)O)cn1c23 | MIC90 |  |  |  |  | 25 strains | 0.78 µg/mL
O=C(CSc1nnc(-c2ccccn2)s1)N/N=c1/scc(-c2ccccc2Cl)n1-c1ccccc1 | MIC |  |  |  |  | Clinical isolate 331 | >80 µg/mL
CC(C)(C)OC(=O)NC(Cc1ccccc1)C(=O)N/N=C/c1occc1[N+](=O)[O-] | MIC |  |  |  | resazurin | H37Rv | 100 µg/mL
Cc1c(NC(=S)Nc2ccc(C(=O)O)c(O)c2)c(=O)n(-c2ccccc2)n1C | inhibition | 12.5 µg/mL |  |  | resazurin | H37Rv | 85%
COc1ccc2c3c1O[C@H]1C(Br)C=C[C@H]4[C@@H](C2)N(C)CC[C@]314 | MIC bound |  |  |  | BACTEC | H37Rv | >12.5 µg/mL
CCCCc1ncc(C(N)=O)nc1Sc1ccccc1 | MIC |  |  |  |  | H37Rv | >6.25 µg/mL
CC1CC(=O)NC1C(=O)O | MIC bound |  |  |  | BACTEC | H37Rv | >12.5 µg/mL
CCOC(=O)C[C@H](NCCCCCCCCCCN[C@@H](CC(=O)OCC)C1O[C@@H]2OC(C)(C)O[C@@H]2[C@H]1OCc1ccccc1)C1O[C@@H]2OC(C)(C)O[C@@H]2[C@H]1OCc1ccccc1 | MIC |  |  |  |  | H37Rv | >50 µg/mL
O=C(NCc1ccc([N+](=O)[O-])cc1)c1ncccc1O | MIC |  |  |  |  | CNCTC MY 331/8 | 250 µM
CN(C)CCOC(C)(c1ccccc1)c1ccc(Cl)cc1 | MIC |  |  |  |  | H37Rv | 32 µg/mL
CC1(C)C[C@H]2[C@@H](C1)[C@@H](C(CCO)NCCCCCCCCCCCCNC(CCO)[C@H]1O[C@@H]3CC(C)(C)C[C@@H]3[C@H]3CC(C)(C)C[C@H]31)O[C@@H]1CC(C)(C)C[C@H]21 | MIC |  |  |  |  | H37Rv | 12.5 µg/mL
O=C(NN1C(=O)CSC1c1ccc(F)cc1)c1ccncc1 | MIC |  |  |  |  | 14PI | 5 µg/mL
CCn1cc(C(=O)O)c(=O)c2cc(F)c(N3CCN(C)CC3)cc21 | inhibition | 10 µg/mL | pH 6.8 |  |  |  | 100%
O=c1c2c3c(sc2nc2n1N=C(c1ccc(Cl)cc1)CS2)CCCC3 | MIC bound |  |  |  | resazurin | H37Rv | >6.25 µg/mL
CSc1nc(C(N)=O)cnc1CC(C)C | inhibition | 12.5 µg/mL |  |  |  | H37Rv | <90%
CCN(CC)CCNc1c(OC)cc(C)c2sc3ccccc3c(=O)c12.O=C(O)/C=C/C(=O)O | MIC |  |  | VERO | BACTEC | H37Rv | 12.5 µg/mL
O=C1CC(c2ccc(O)cc2)Oc2ccccc21 | EC50 |  |  |  |  |  | >12.5 µg/mL
CC(NC(=O)OC(C)(C)C)C(=O)N/N=C/c1cccs1 | MIC |  |  |  | resazurin | H37Rv | 100 µg/mL
Cc1ccnc(NS(=O)(=O)c2ccc(N3C(=O)CC(=O)N(c4ccc(C(=O)O)c(O)c4)C3=S)cc2)n1 | MIC90 |  |  |  | broth dilution | H37Rv | >12.5 µg/mL
O=C1N(CO)CCN1CO | inhibition | 12.5 µg/mL |  |  | BACTEC | H37Rv | 0%
COc1c(N2CCNC(C)C2)c(F)cc2c(=O)c(C(=O)O)cn(C3CC3)c12 | MIC |  |  |  |  | Strain 328 | 0.125 µg/mL
CN1CCCCC(n2nc(Cc3ccc(Cl)cc3)c3ccccc3c2=O)CC1 | MIC |  |  |  |  | H37Ra | 16 µg/mL
O=C(NN1C(=O)CSC1c1ccccc1F)c1ccncc1 | MIC |  |  |  |  | H37Rv | >5 µg/mL
CC(C1=C(CCN(C)C)Cc2ccccc21)c1ccccn1 | MIC |  |  |  |  | H37Ra | 64 µg/mL
CC1(C)CNC(=O)C(C)(C2(C)NC(C)(C)CNC2=O)N1 | MIC bound |  |  |  | BACTEC | H37Rv | >12.5 µg/mL
CC1(C)C[C@H]2[C@@H](C1)[C@@H](C(CCO)NCCCCCCCCCCNC(CCO)[C@H]1O[C@@H]3CC(C)(C)C[C@@H]3[C@H]3CC(C)(C)C[C@H]31)O[C@@H]1CC(C)(C)C[C@H]21 | MIC |  |  |  |  | H37Rv | 6.25 µg/mL
O=C(CSc1nnc(-c2ccccn2)s1)N/N=c1/scc(-c2ccccc2)n1-c1ccc(Cl)cc1 | MIC |  |  |  |  | Clinical isolate 190 | 40 µg/mL
CCCc1ncc(C(N)=O)nc1SCC | MIC |  |  |  |  | H37Rv | >12.5 µg/mL
CN1CCC(=C2c3ccccc3C=Cc3ccccc32)CC1 | MIC |  |  |  |  | H37Ra | 16 µg/mL
O=C(NN1C(=O)CS(=O)(=O)C1c1ccccc1F)c1ccncc1 | MIC |  |  |  |  | H37Rv | 5 µg/mL
Cc1ccc(NC(=O)CCl)cc1Cl | MIC bound |  |  |  | BACTEC | H37Rv | ≤12.5 µg/mL
CCCCSc1nc(C(N)=O)cnc1C(C)(C)C | inhibition | 12.5 µg/mL |  |  |  | H37Rv | <90%
COc1ccc2c(c1)[n+](=O)c(C(=O)C/C(=N\NC(=O)C[N+](C)(C)C)C(=O)Nc1cccc(C)c1C)c(C)n2[O-].[Cl-] | MIC bound |  |  |  | BACTEC | H37Rv | >12.5 µg/mL
Cc1ccnc(NS(=O)(=O)c2ccc(NC(=S)Nc3ccc(C(=O)O)c(O)c3)cc2)n1 | inhibition | 12.5 µg/mL |  |  | resazurin | H37Rv | 85%
CCCCSc1nc(C(N)=S)cnc1CCC | MIC |  |  |  |  | H37Rv | >12.5 µg/mL
CCC1CN(c2c(F)cc3c(=O)c(C(=O)O)cn(C4CC4)c3c2OC)CCN1 | MIC |  |  |  |  | TN1626 (WILD TYPE) | 0.3 µg/mL

A second listing of 6 rows from above:

smiles | measure | tested at | conditions | cells | read by | strain | value
NNC(=O)C(N)Cc1ccccc1 | MIC |  |  |  | resazurin | H37Rv | 100 µg/mL
CCCCSc1nc(C(N)=O)cnc1C(C)(C)C | inhibition | 12.5 µg/mL |  |  |  | H37Rv | <90%
O=C(/C=C/c1ccccc1)c1ccccc1O | EC50 |  |  |  |  | H37Rv | <12.5 µg/mL
CCCCc1ncc(C(N)=S)nc1SCC | inhibition | 12.5 µg/mL |  |  |  | H37Rv | 77%
Cc1onc(-c2ccccc2)c1C(=O)N[C@@H]1C(=O)N2[C@@H]1SC(C)(C)[C@@H]2C(=O)O | inhibition | 5 µg/mL | 21 d |  | colony count | Gordon | 95%
COc1ccc(C2Oc3ccccc3C(=O)C2O)cc1 | inhibition | 12.5 µg/mL |  |  |  | H37Rv | 48%